Results deposited as PubChem BioAssay AID624099 (ICCB-Longwood, 2012).
Here is an unselected part of about 21,000 reagents. In the full data, 497 (2.4%) got an active call. 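Higher z means weaker E2 silencing; only reporter increases were scored, and knock-downs that hurt cell survival may mask genuine repressor factors.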 Reagents against one gene are numbered here.

Screen: 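Human genes that papillomavirus E2 requires to repress the HPV18 LCR promoter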 (primary screen)
Cell system: human C33A cervical carcinoma cells (HPV-negative) stably expressing BPV1 E2 and an HPV18 LCR luciferase reporter
Knock-down reagent: siRNA pool against human genes, 40 nM
Time to read-out: 72 h
Measurement: 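Per-well luciferase luminescence, z-scored on each plate against the plate mean and SD with control wells left out, then averaged across three replicate plates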
Direction: mean z-score and z-score: higher = stronger reporter signal, weaker E2 silencing
Active means: 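Hit if mean z-score reaches 2 and two or more of three replicate z-scores also reach 2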

target gene | reagent | mean z-score | z-score, replicate A | z-score, replicate B | z-score, replicate C | outcome
ASTL | 1 | 0.68 | 0.67 | 0.34 | 1.02 | inactive
SNRPD1 | 1 | -1.32 | -1.41 | -1.56 | -0.99 | inactive
ARHGEF5 | 1 | -1.18 | -1.73 | -0.74 | -1.07 | inactive
LOC400944 (retired record) | 1 | 0.93 | 1.21 | 0.89 | 0.7 | inactive
FAM174A | 1 | -0.36 | 0.02 | -0.57 | -0.54 | inactive
RASSF2 | 1 | -0.21 | -0.08 | -0.2 | -0.35 | inactive
PLEKHS1 | 1 | -1.37 | -1.42 | -1.22 | -1.48 | inactive
PRR7 | 1 | 0.5 | 0.27 | 0.83 | 0.4 | inactive
BCL10 | 1 | 2.21 | 2.24 | 2.22 | 2.17 | active
LOC401255 (retired record) | 1 | -2.51 | -2.61 | -2.64 | -2.3 | inactive
ANKRD62 | 1 | 0.01 | -0.44 | 0.43 | 0.03 | inactive
FAM193A | 1 | 0.29 | 0.25 | 0.21 | 0.4 | inactive
GBP4 | 1 | -0.32 | 0.03 | -0.63 | -0.36 | inactive
SLC4A10 | 1 | 1.34 | 1.18 | 1.48 | 1.37 | inactive
E2F5 | 1 | -0.1 | -0.34 | -0.03 | 0.06 | inactive
LOC388073 (retired record) | 1 | -0.23 | -0.07 | -0.26 | -0.37 | inactive
PTK2 | 1 | -0.35 | -0.32 | -0.41 | -0.32 | inactive
ATG16L1 | 1 | 0.16 | -0.03 | 0.22 | 0.29 | inactive
SLC35A2 | 1 | 0.01 | 0.02 | -0.03 | 0.05 | inactive
NDUFA1 | 1 | -0.59 | -0.49 | -0.42 | -0.86 | inactive
PLXNA3 | 1 | -1.8 | -1.77 | -1.82 | -1.8 | inactive

Called active (from the list above):
target gene | reagent | mean z-score | z-score, replicate A | z-score, replicate B | z-score, replicate C | outcome
BCL10 | 1 | 2.21 | 2.24 | 2.22 | 2.17 | active

The list goes on.
target gene | reagent | mean z-score | z-score, replicate A | z-score, replicate B | z-score, replicate C | outcome
POU2AF2 | 1 | 0.37 | 0.23 | 0.71 | 0.17 | inactive
TEKT2 | 1 | 0.43 | 0.26 | 0.29 | 0.75 | inactive
RAPGEF6 | 1 | -0.31 | -0.27 | -0.3 | -0.36 | inactive
PRR3 | 1 | -0.08 | -0.35 | 0.05 | 0.07 | inactive
GPHRB | 1 | 0.13 | 0.32 | 0.08 | 0 | inactive
LRRC20 | 1 | -0.54 | -0.55 | -0.36 | -0.71 | inactive
PLA2G4C | 1 | 1.88 | 2.2 | 2.1 | 1.32 | inactive
PHC1 | 1 | 1.42 | 1.48 | 1.53 | 1.26 | inactive
PHC1 | 2 | 0.25 | 0.52 | 0 | 0.22 | inactive
GPR20 | 1 | 1.03 | 0.85 | 1.05 | 1.19 | inactive
LARP4 | 1 | -1.25 | -1.35 | -1.6 | -0.79 | inactive
SLC38A6 | 1 | 0.75 | 0.78 | 0.66 | 0.82 | inactive
RPL31 | 1 | -1.94 | -1.95 | -2.01 | -1.86 | inactive
FKRP | 1 | -0.6 | -0.69 | -0.4 | -0.69 | inactive
CYP2R1 | 1 | 0.2 | 0.5 | 0.21 | -0.11 | inactive
COX6B1 | 1 | -1.39 | -1.41 | -1.42 | -1.34 | inactive
ZNF74 | 1 | -0.16 | -0.21 | -0.19 | -0.08 | inactive
PCDHB4 | 1 | 1.28 | 1.04 | 1.56 | 1.24 | inactive
PPAN | 1 | -1.37 | -1.23 | -1.44 | -1.45 | inactive
TBC1D23 | 1 | -1.65 | -1.72 | -1.48 | -1.74 | inactive
CUX1 | 1 | -1.42 | -1.08 | -1.83 | -1.35 | inactive
ITSN1 | 1 | 1.76 | 1.6 | 1.6 | 2.09 | inactive
STAC2 | 1 | -1.39 | -1.37 | -1.31 | -1.5 | inactive
PGAM1 | 1 | -0.67 | -0.91 | -0.83 | -0.26 | inactive
PGAM1 | 2 | -0.84 | -0.55 | -0.95 | -1.02 | inactive
FLJ46230 (retired record) | 1 | -0.5 | -0.67 | -0.51 | -0.33 | inactive
TRIM65 | 1 | -0.32 | -0.39 | -0.07 | -0.49 | inactive
FKBP4P2 | 1 | 0.49 | 0.16 | 0.79 | 0.52 | inactive
KRT15 | 1 | 0.19 | -0.07 | 0.38 | 0.26 | inactive
MEGF9 | 1 | 1.23 | 1.36 | 0.99 | 1.35 | inactive
ACSM2B | 1 | 1.5 | 1.06 | 1.58 | 1.85 | inactive
SDC4 | 1 | 1.27 | 1.33 | 1.49 | 0.98 | inactive
LINC01443 | 1 | 1.32 | 1.13 | 1.24 | 1.58 | inactive
PDCL3 | 1 | 1.6 | 1.81 | 1.54 | 1.44 | inactive
FLJ35816 (retired record) | 1 | -0.21 | -0.26 | -0.32 | -0.04 | inactive
KIF24 | 1 | 0.33 | 0.25 | 0.39 | 0.36 | inactive
